PubChem BioAssay AID1224833, University of Georgia – 2016
Screen: 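Human genes whose knock-down alters rotavirus replication in monkey cells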 (primary screen). System: monkey MA104 kidney cells. Knock-down reagent: siRNA pool against human genes, 50 nM. Time to read-out: 48 h knock-down before infection; read 24 h after infection. Treatment: infection with rotavirus strain RV3 two days after transfection; infectious dose for this stage not given. Measurement: 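z-score of rotavirus antigen signal per well, from a fluorescent immunoassay, relative to non-targeting control wells on the same plate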. Direction: z-score vs non-targeting control: higher = more rotavirus replication than with non-targeting control. Active means: In these data the active calls have z-score vs non-targeting control at about -1 or lower, or at about 1 or higher. Meaning of the calls: active = z-score beyond 1 either way; inactive = z-score within 1 of zero.
Here is a random part of about 12,000 reagents. About 5,600 of all reagents (46%) were called active. 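Active calls cover z-scores past 1 in both directions, so they include lowered as well as raised rotavirus replication.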

gene	z-score vs non-targeting control	call
LYRM4	1.7	active
UTRN	-0.735	inactive
SPAG4	-0.302	inactive
RBM17	0.0063	inactive
RCL1	0.15	inactive
YBX3	-0.894	inactive
CGA	-2.82	active
IL13	-1.4	active
NDOR1	0.576	inactive
AKAP1	0.54	inactive
HTR3B	-1.36	active
DAOA	0.76	inactive
GATM	-1.17	active
ZNF587	0.782	inactive
LRRC3	-2.74	active
KRTAP5-6	0.486	inactive
PATL1	-1.56	active
ADAM32	-1.61	active
NDRG2	-1.9	active
SLC26A5	-2.66	active
IFNAR1	-1.29	active
IL4R	-1.6	active
DNAH11	-0.924	inactive
HSF1	-2.03	active
DDAH1	-0.721	inactive
ECRG4	-0.244	inactive

The list goes on; the last 4 above are carried over.
gene	z-score vs non-targeting control	call
DNAH11	-0.924	inactive
HSF1	-2.03	active
DDAH1	-0.721	inactive
ECRG4	-0.244	inactive
C1QBP	0.607	inactive
SLC5A4	-0.608	inactive
CANT1	1.89	active
CYP3A5	0.225	inactive
MPPED2	0.746	inactive
CXCL3	-1.81	active
FERRY3	-0.164	inactive
SLC10A5	-1.05	active
RNF133	1.25	active
NPRL3	-1.34	active
NSMAF	-0.512	inactive
MYL11	0.344	inactive
GALNS	-1.46	active
PIMREG	-0.552	inactive
PDE5A	-0.835	inactive
CRCT1	0.251	inactive
ZNF550	-0.139	inactive
STRIP2	-0.653	inactive
TOR1B	-0.244	inactive
